Source: EP1161455B1

Assays:
[1] = biological target: gp120 (IIIB isolate) complexed to sCD4 (HIV-1 (IIIB isolate)) (UniProt P03375); test: ELISA; sCD4-17b captured on anti-CD4 MAb 13B8.2; gp120 (IIIB)/sCD4 complex added, detected with polyclonal anti-gp120 antiserum and anti-rabbit IgG-HRP; control buffer gave 0.05
[2] = biological target: gp120 (IIIB isolate), free (HIV-1 (IIIB isolate)) (UniProt P03375); test: ELISA; sCD4-17b captured on anti-His tag MAb; free gp120 added, detected with polyclonal anti-gp120 antiserum and anti-rabbit IgG-HRP; control buffer gave 0.05

## sCD4-SCFv(17b) bispecific fusion protein
[1]
  absorbance at 405 nm (absorbance (405 nm)): 0.15
[2]
  absorbance at 405 nm (absorbance (405 nm)): 0.46
